Measurements taken from patent US20230128372A1, “AZD1656 FOR USE IN THE TREATMENT OF PNEUMONITIS AND/OR MYCORDITIS CAUSED BY A CORONAVIRUS” (EXCALIBUR MEDICINES LIMITED, priority 2020, published 2023).

System: hospitalised diabetic patients with known or suspected COVID-19
Details: 60 patients having completed the trial, blinded data, 100 mg BID orally or placebo, 21 days

## COC[C@H](C)Oc1cc(Oc2cnc(C(=O)N3CCC3)cn2)cc(C(=O)Nc2cnc(C)cn2)c1 [AZD1656, 3-{[5-(Azetidin-1-ylcarbonyl)pyrazin-2-yl]oxy}-5-{[(1S)-1-methyl-2-(methyloxy)ethyl]oxy}-N-(5-methylpyrazin-2-yl)benzamide]
  safety review by independent Safety Review Committee: no safety concerns
